We go through 6 molecules from the supplement of paper PMC9931576.

Human monoclonal antibodies against the spike receptor-binding domain (heavy:light variable regions). IC50 against pseudoviruses bearing the spike of naturally observed variants; lower = stronger; >10 µg/ml means not reached at the top dose. No active / inactive call. The stated detection limit is 0.0005 µg/ml; values near or below 0.001 µg/ml lie at the floor of the assay.

The labels stand for the following.
B1: BD55-6393 (protein)
chain 1: QAQLVQSGAEVKRPGSSVKVSCQASGGTFSSYGFSWMRQAPGQGLEWIGRIIPILGIANYAPKFQSRVTITAEESTTTAYMELSSLRSEDTAVYYCARSSLDYGDYLLRYNWFDPWGQGTLVTVSS
chain 2: DIQMTQSPSSLSASVGDRVTITCRASQNITSYLSWYQLKPGKAPRLLIYTASSLQSGVPSRFSGSGSGTDFSLTISSLQPEDFATYCCQQSYNFPWTFGRGTKVEI
B2: BD55-6399 (protein)
chain 1: QVQLVQSGAEVKKPGASVKVSCKTSGYGFVTYSLHWVRQAPGQGLEWMGRFSPDDGSTSYAQKFQGRVTMSADTSTTTVYLSLKSLRSEDTAFYFCARDPGGFYPNRFDVWGQGTLVTVSS
chain 2: DIQMTQSPSSLSASVGDRVTITCRASQTISHYLNWYQQKPGGAPKLLIYAASTLQGGVPSRFSGSGSGTDFTLTIHSLQPEDFATYYCQQSYTTPPLTFGGGTRVEI
B3: BD55-6404 (protein)
chain 1: QVHLVQSGAEVKKPGASVKISCKTSGYPFTSHYMHWVRQAPGQGPEWMGFINPSTLTTEYAQKIQGRATLTRDMSTSTVYMELSSLRSEDTAIYYCARESSGVNVAENHFDLWGQGTLVTVSS
chain 2: EIVLTQSPGILSLSPGERATLSCRASQHVSSNYLAWYQQKSGQAPRLLIYGASSRATGIPDRFSGSGSGTDFTLTISRLEPEDVAVYFCQQYYTSPRTFGQGTKVEIK
B4: BD55-6405 (protein)
chain 1: QLQLQESGPGLVKPSETLSLACTVSGGAISSSVDYWGWIRQPPGKGLEWIGSLYNGGNTYYNPSLKSRLTISVDMSKDQLSLKLSSVTAADTAVYYCARLAYDGSLDDHWGQGVLVTVSS
chain 2: QSVLTQPPSASGTPGQRVTISCSGRSSNIGSNYVYWYHQLPGTAPKLLIYRNNLRPSGVPDRFSGSKSGASASLAISGLRSEDEADYYCASWDDSLSGVVFGGGTKLTVL
B5: BD55-6410 (protein)
chain 1: QVQLQESGPGLVKPSQTLSLTCTVSGGSVTRGGYYWSWVRQHPGKGLEWIGNIYYTGNTNYKPSLKSRISISVDTSKNQFSLILSSVTAADTAIYYCARGSYYAAGTYYNDYWGQGTLVTVSS
chain 2: SSELTQDPAVSVGLGQTVRITCQGDSLRTYFPSWYQQKPGQAPLLVIYGKNNRPSGIPDRFSGSSSGDTASLTITRTQAEDEADYYCNSRDRSTYHLEVFGGGTKLTVL
B6: BD55-1241 (protein)
chain 1: EVQLVESGGGLVQPGGSLRLSCVASGFTFSRYNMNWVRQAPGKGPEWVSYISTLSTTIDYADSVEGRFTISRDNAKNSLYLQMNSLRDEDTAVYYCARKCGNSCYVGPYYYYGMDVWGQGTTVTVSS
chain 2: DIVMTQSPLSLPVTPGEPASISCRSSQSLLHGNGYNYLDWYLQKPGQSPQVLIYLGSNRASGVPDRFSGSGSGTDFTLKISRVEAEDVGIYYCMQALQTPLTFGQGTRLEIK

The first assay addresses SARS-CoV-2 Omicron BA.1 spike pseudovirus. The assay can be described thus: pseudovirus neutralization IC50; higher = weaker neutralization. The protocol: (§1)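 Single-round VSV luciferase pseudovirus mixed with antibody dilutions for 1 h and put on Huh-7 cells for about a day; IC50 from the dose curve.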
Regarding B1, the “pseudovirus neutralization IC50” value stood at 2.44 µg/mL.

For the molecule B2, the “pseudovirus neutralization IC50” value was more than 10 µg/mL.

For B3, the “pseudovirus neutralization IC50” value was more than 10 µg/mL.

On to B4, for which the “pseudovirus neutralization IC50” value is more than 10 µg/mL.

On to B5, for which the “pseudovirus neutralization IC50” value was more than 10 µg/mL.

With B6, the “pseudovirus neutralization IC50” value is more than 10 µg/mL.

A further assay deals with SARS-CoV-2 Omicron BA.2 spike pseudovirus. Described as above. The procedure:
as §1
As for B1, the “pseudovirus neutralization IC50” value was 2.35 µg/mL.

B2: the “pseudovirus neutralization IC50” value is more than 10 µg/mL.

For B3, the “pseudovirus neutralization IC50” value was more than 10 µg/mL.

Consider B4, for which the “pseudovirus neutralization IC50” value was more than 10 µg/mL.

Take B5: the “pseudovirus neutralization IC50” value was more than 10 µg/mL.

In the case of B6, the “pseudovirus neutralization IC50” value is more than 10 µg/mL.

A further assay concerns the target SARS-CoV-2 Omicron BA.2.75 spike pseudovirus. The assay is described as above. The protocol:
as §1
Take B1: the “pseudovirus neutralization IC50” value was more than 10 µg/mL.

In the case of B2, the “pseudovirus neutralization IC50” value is more than 10 µg/mL.

As to B3, the “pseudovirus neutralization IC50” value is more than 10 µg/mL.

In the case of B4, the “pseudovirus neutralization IC50” value was more than 10 µg/mL.

With B5, the “pseudovirus neutralization IC50” value was more than 10 µg/mL.

On to B6, for which the “pseudovirus neutralization IC50” value was more than 10 µg/mL.

The target in the next assay is SARS-CoV-2 Omicron BA.5 spike pseudovirus. The assay is described as above. The procedure:
as §1
Consider B1, for which the “pseudovirus neutralization IC50” value was determined as 0.35 µg/mL.

Turning to B2, the “pseudovirus neutralization IC50” value is more than 10 µg/mL.

For the molecule B3, the “pseudovirus neutralization IC50” value is more than 10 µg/mL.

B4: the “pseudovirus neutralization IC50” value is more than 10 µg/mL.

On to B5, for which the “pseudovirus neutralization IC50” value was more than 10 µg/mL.

As to B6, the “pseudovirus neutralization IC50” value was more than 10 µg/mL.

The next assay has as its target SARS-CoV-2 Omicron BQ.1.1 spike pseudovirus. The description is as above. The procedure: as §1
In the case of B1, the “pseudovirus neutralization IC50” value is more than 10 µg/mL.

B2: the “pseudovirus neutralization IC50” value was more than 10 µg/mL.

In the case of B3, the “pseudovirus neutralization IC50” value was more than 10 µg/mL.

With B4, the “pseudovirus neutralization IC50” value was more than 10 µg/mL.

Consider B5, for which the “pseudovirus neutralization IC50” value is more than 10 µg/mL.

With B6, the “pseudovirus neutralization IC50” value is more than 10 µg/mL.

The next assay addresses SARS-CoV-2 Omicron XBB spike pseudovirus. Described as above. The procedure:
as §1
Take B1: the “pseudovirus neutralization IC50” value is more than 10 µg/mL.

Regarding B2, the “pseudovirus neutralization IC50” value is more than 10 µg/mL.

B3: the “pseudovirus neutralization IC50” value was more than 10 µg/mL.

As for B4, the “pseudovirus neutralization IC50” value was more than 10 µg/mL.

Turning to B5, the “pseudovirus neutralization IC50” value was more than 10 µg/mL.

On to B6, for which the “pseudovirus neutralization IC50” value was more than 10 µg/mL.

Another assay has as its target SARS-CoV-2 early D614G spike pseudovirus. Described as above. The procedure: as §1
Turning to B1, the “pseudovirus neutralization IC50” value is 1.54 µg/mL.

On to B2, for which the “pseudovirus neutralization IC50” value was more than 10 µg/mL.

Consider B3, for which the “pseudovirus neutralization IC50” value was more than 10 µg/mL.

On to B4, for which the “pseudovirus neutralization IC50” value is more than 10 µg/mL.

Consider B5, for which the “pseudovirus neutralization IC50” value was more than 10 µg/mL.

B6: the “pseudovirus neutralization IC50” value was found to be 2.28 µg/mL.
